# According to US20250248397A1, “CHITOSAN ENCAPSULATION OF ABSOLUTE (ESSENTIAL) ROSEMARY, PEPPERMINT, AND COTTONSEED OILS” (GroPro Corporation, priority 2024, published 2025):
# Tested on: mildew, and anthracnose
# Experiment: Fungicide activity of Geraniol oil
# Conditions: used at 500 to 4,000 ppm
structure (smiles),measurement,value
"CC(C)=CCC/C(C)=C/CO [Geraniol, 3,7-dimethyl-2,6-octadien-1-ol]",fungicidal control and plant phytotoxicity,superior fungicidal control was demonstrated without plant phytotoxicity
